Target: the molecule itself
Assay: SEC

B1: Bpss1228 (natural protein)
chain: MKPEMIIQTYGADTSGMVCGFRFAPDSAGEPVDAGVAAEWAAGRGARPDEFLWLHFNLAHGASERWMRAHLDLPETFHEFLREGSHSTRIEQQDGVLRAVVNDVMFSLDLEASEIATMWAYVDRRMMVTARAKPLRSIDTLRESVRQGERFRSPAELLIHLLRDQADLMMHIVRRASTDVDRIEDRFLSERLSANRGQLSAMRRTLTRLQRMLAPEPGSIFRLLAKPPAWLLSADVQELRESTEEFSVVLADLAGLIERIKLLQEEIASRLDEQNNRTLFTLTLVTVIALPINIVAGFFGMNVGGIPFSENKHGFWMMVLLVAGFTALAAWWTFWRRGDR
stoichiometry N: 5

— article PMC9511408, “Ion selectivity and gating behavior of the CorA-type channel Bpss1228” (Frontiers in Chemistry, 2022)
